For assay [1], the system named is Pseudomonas aeruginosa model strain PAO1. Nature of the assay: flat-plate culture, PCN extracted with chloroform, absorption at 520 nm. As to the method: According to this embodiment, the strain used is the Pseudomonas aeruginosa model strain PAO1 (which is more common, and is available from various collection centers). This bacteria are obligate aerobic bacteria and is culture under 37° C. in common bacteria culture medium (such as LB medium) for 20˜24 h.
In this study, the effect of NO on the synthesis of PCN in bacterial cells is investigated through adding multiple sets of flat plate samples of SNPs at different concentrations and one blank flat plate. The final concentrations of SNPs in each group are 20, 40, 60, 80, and 100 μM respectively. After PAO1 is cultured for 22 hours, the PCN produced by the cells in the flat plate is extracted with chloroform, condensed, and then developed with hydrochloric acid, and the level of PCN produced by the cells is determined according to the light absorption value of the coloring solution at 520 nm.

Chains of the proteins cited; added tags and fusions are not shown.
UniProt Q9I2S3, whole entry: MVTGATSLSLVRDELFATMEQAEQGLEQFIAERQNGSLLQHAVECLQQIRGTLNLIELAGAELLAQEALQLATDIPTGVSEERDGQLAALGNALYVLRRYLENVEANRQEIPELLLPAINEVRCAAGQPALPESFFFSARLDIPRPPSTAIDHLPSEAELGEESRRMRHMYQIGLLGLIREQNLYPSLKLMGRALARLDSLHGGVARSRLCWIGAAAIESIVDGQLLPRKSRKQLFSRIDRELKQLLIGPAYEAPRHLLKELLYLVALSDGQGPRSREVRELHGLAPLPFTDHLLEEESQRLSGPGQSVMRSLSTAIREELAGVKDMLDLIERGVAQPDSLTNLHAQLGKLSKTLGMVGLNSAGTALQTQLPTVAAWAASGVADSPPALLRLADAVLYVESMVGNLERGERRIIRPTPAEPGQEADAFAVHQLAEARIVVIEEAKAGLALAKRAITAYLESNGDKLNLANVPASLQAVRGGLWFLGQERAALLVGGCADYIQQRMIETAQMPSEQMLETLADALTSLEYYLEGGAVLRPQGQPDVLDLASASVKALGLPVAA
UniProt P25084, whole entry: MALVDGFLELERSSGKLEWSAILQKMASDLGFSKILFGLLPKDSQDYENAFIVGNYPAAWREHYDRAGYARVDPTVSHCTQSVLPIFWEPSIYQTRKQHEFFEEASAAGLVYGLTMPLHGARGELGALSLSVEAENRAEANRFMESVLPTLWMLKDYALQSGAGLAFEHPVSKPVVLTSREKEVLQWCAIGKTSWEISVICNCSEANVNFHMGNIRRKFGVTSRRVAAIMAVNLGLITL
UniProt P54292, whole entry: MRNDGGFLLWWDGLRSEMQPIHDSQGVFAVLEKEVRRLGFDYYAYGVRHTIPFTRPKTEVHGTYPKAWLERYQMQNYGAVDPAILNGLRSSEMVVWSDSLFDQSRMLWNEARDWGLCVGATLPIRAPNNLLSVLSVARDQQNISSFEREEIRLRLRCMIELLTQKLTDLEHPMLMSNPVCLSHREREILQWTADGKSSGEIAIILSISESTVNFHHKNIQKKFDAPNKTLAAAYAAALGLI

For assay [2] the test system is unchanged. The assay is described as follows: shake flask culture, PCN detection (520 nm). As to the method:
2) PCN detection: The PCN produced by the bacterial cells in the bacteria solution is extracted with chloroform, concentrated, and then developed with hydrochloric acid, then the level of PCN produced by the bacteria is determined according to the light absorption value at 520 nm.
(§1) According to this embodiment, the strain used is the Pseudomonas aeruginosa model strain PAO1; the clinical strain is isolated from Shaanxi Provincial People's Hospital and is isolated by the following method: Selective medium such as MacConkey agar (MAC) is inoculated to clinical specimen with normal flora or specimen collected from the environment; plain or blood agar media is inoculated to clinical specimen without normal flora such as blood, cerebrospinal fluid, puncture fluid, and etc. […] Liquefied gelatin can decompose urea, nitrate reduction to produce nitrite and nitrogen is produced, indole negative without producing H2S, arginine dihydrolase positive by using citrate. Based on the above physiological and biochemical characteristics, it is determined that the isolated strain is Pseudomonas aeruginosa.
In this study, shake flask culture is used to determine the effect of SNP on the growth of PAO1 and PCN biosynthesis. Multiple sets of samples with different concentrations of SNPs and one blank sample are used to study the effect of NO on cell growth and PCN synthesis. The final concentrations of SNPs in each group are 20, 60, 100, 140, 160, and 200 μM respectively. Samples are taken every 2 hours during shake flask culture for cell growth detection and PCN detection. The results are shown in A and B in FIG. 1. When the concentration of NO donor SNP is less than 100 μM, it has relatively small effect on the growth of PAO1 strain of Pseudomonas aeruginosa.

For assay [3] the test system is unchanged. Nature of the assay: shake flask culture, bacterial growth (600 nm). To be noted: concentration less than 100 μM. As to the method: 1) Detection of bacterial growth: The growth of bacterial cells is determined by the light absorption value at 600 nm every 2 hours
as §1
In this study, shake flask culture is used to determine the effect of SNP on the growth of PAO1 and PCN biosynthesis. Multiple sets of samples with different concentrations of SNPs and one blank sample are used to study the effect of NO on cell growth and PCN synthesis. The final concentrations of SNPs in each group are 20, 60, 100, 140, 160, and 200 μM respectively. […]

A further assay has as its system PAO1 protein. Nature of the assay: overall SNO level of protein after NO donor treatment (IBP). It is filed as cell-based, Pseudomonas aeruginosa. Particulars: after treatment with NO donor.
For a further assay, the target named is FimL (Pseudomonas aeruginosa, UniProt Q9I2S3). The assay is described as follows: SNO modification by IBP enrichment and TMT mass spectrometry. The text has this: (§2) Principle of Implementation: The present invention utilizes the irreversible avidin labeling (IBP) method to affinity enrich the SNO modified protein, analyzes the enriched SNO modified protein by mass spectrometry, and combines literature data to obtain a possible SNO modification key protein for NO inhibition on PCN synthesis.
(§3) After processing Pseudomonas aeruginosa with NO donor treatment, collect the bacteria and obtain protein of bacteria by cleavage; use irreversible biotinylation procedure (IBP) for blocking, reduction and biotin labelling to produce Thionitrosylation-modified protein, which is then enriched and modified with Streptavidin. Process elution of modified protein by 2.5% SDS. After separation by gel electrophoresis, enzymatic hydrolysis of protein gel into peptides. Labeled modified protein peptides by mass spectrometric TMT reagents. Perform mass spectrometry after desalting. Identify the protein that undergoes SNO modification (nitrosylation) and quantitative changes after NO donor processing.
(§4) Note: 129 isotope labeled SNP treatment group with nitrosylated modified protein samples, 128 isotope marker control group with nitrosylated modified protein samples, the value of 129/128 of the target protein in the mass spectrometry test results represents: the relative change in the thiosylated modification of this protein in the SNP treatment group when compared with the control group.

The next assay addresses LasR (Pseudomonas aeruginosa, UniProt P25084). The description is as above.
Source text: as §2, §3, §4

A further assay concerns PhzA. The assay is described as above.
Source text: as §2, §3, §4

Another assay deals with PhzB. The description is as above.
Source text: as §2, §3, §4

The test system of the next assay is PilL. The description is as above.
Source text: as §2, §3, §4

The target of a further assay is RhlR (Pseudomonas aeruginosa, UniProt P54292). The description is as above.
Source text: as §2, §3, §4

Some compounds may have been tested in ways that are not shown here.

Turning to sodium nitroprusside, the “synthesis of PCN with increasing concentration” value in [1] (20 μM˜60 μM, 22 hours) is reported as “reduced significantly”. Moreover, in assay [1] (decrease flattened above this concentration), the “relatively ideal concentration for PCN reduction” value turned out to be 60 µM. The “inhibitory effect on the synthesis of PCN” value in assay [2] (60 μM) is “most significant inhibitory effect”. In addition, in assay [2] (20˜100 μM), the “synthesis of PCN with increasing concentrations” value was “decreases significantly”. Besides, the PCN synthesis reduced in [2] (60 μm SNP treatment) is listed as 82%. In assay [3], the “effect on the growth of PAO1 strain” value was “relatively small effect”. The “overall SNO level of the PAO1 protein” value in the assay on PAO1 protein is reported as “increased significantly”. For the same substance, the “129/128 (relative change in nitrosylated modification, SNP treatment group vs control group)” value at FimL turned out to be 1.352; at LasR it was 1.447; with PhzA it was 1.374; with PhzB, 1.388; in the assay on PilL it was 1.338; at RhlR, 1.574.

Source of the values: patent US11058716B2 (priority 2015, dated 2021).
